Compound potency records, mixed from different reports. Data source: NIAID ChemDB in PubChem.

Shared fields: tests in culture; agent: HIV-1; read-out: fold resistance

Fold resistance: result on the changed form divided by that on wild type. Blank or dashed fields: not listed here. Neighbouring rows are from separate reports.

compound,strain,changes,cells,method,result
CC(C)OC(=S)Nc1ccc(Cl)c(C(=O)O)c1,,RT-E138K,CEM,syncytia,>1
CCc1c(Cc2cc(Cl)cc(Cl)c2)n(COC2Cc3ccccc3C2)c(=O)[nH]c1=O,NNRTI-resistant (RT Y181C) N119,RT-Y181C,MT-4,cytopathic effect / MTT,16.15
O=S(=O)(Cc1ccccc1I)c1cccc[n+]1[O-],IIIB,RT-K103N,CEM,syncytia,1.125
Cc1ncn(Nc2ccccc2)c1-c1ccccc1,SO561945 (RT K103N Y181C),RT-K103N Y181C,MT-4,cytopathic effect / MTT,<2.49
C#CCOCn1c(Cc2cc(Cl)cc(Cl)c2)c(CC)c(=O)[nH]c1=O,NNRTI-resistant (RT K103N Y181C) A17,RT-K103N Y181C,MT-4,cytopathic effect / MTT,250
CO/N=C/c1cc(NC(=S)OC(C)C)ccc1Cl,,RT-E138K,CEM,syncytia,11.7
CCc1cc(C#N)cc(C(=O)c2cc(Cl)ccc2OCC(=O)Nc2ccc(S(N)(=O)=O)cc2C)c1,HXB2 (RT-K103N G190A) Recombinant,RT-K103N G190A,HeLa + HELA CD4+,β-galactosidase,~1
Cc1c(OCC2CCC2)c2cc(F)ccc2[nH]c1=O,NNRTI-resistant (RT V108I Y181C),RT-V108I Y181C,HeLa + HeLa-MAGI,β-galactosidase,>3.28
CC(C)=CCOc1cc(NC(=S)c2ccoc2C)ccc1Cl,4XAZT+L100I (RT D67N K70R L100I T215Y K219Q),RT-D67N K70R L100I T215Y K219Q,CEM + CEM-SS,p24,33
Nc1nc2c(ncn2[C@H]2CO[C@@H](CO)O2)c(=O)[nH]1,,RT-L74V,MT-2,cytopathic effect / XTT,~1.67
COc1cc2c(cc1Cc1cccc(Cl)c1F)c(=O)c(C(=O)O)cn2[C@H](CO)C(C)C,NL4-3,Y99H,MT-4,luminescence,1
CCc1c(C)[nH]c(=O)c(C(F)(F)F)c1Oc1cc(C)cc(C)c1,,RT-Y188L,MT-4,cytopathic effect / MTT,64
Cc1occc1C(=O)Nc1ccc(Cl)c(SCC=C(Cl)Cl)c1,TSAO-m3T-resistant (RT E138K),RT-E138K,CEM,syncytia,7.31
CCCOC(=O)c1cc(NC(=S)OC(C)C)ccc1Cl,,RT-L100I,CEM,syncytia,311
O=C1Nc2ccc(Cl)c3c2[C@](C(F)(F)F)(C=C(c2cccnc2)O3)N1,,RT-L100I K103N,MT-4,p24,195
CC(C)COC(=O)c1cc(NC(=S)OC(C)C)ccc1Cl,,RT-Y181C,CEM,syncytia,202.1
CCCCCCCCCCCCCCCC(=O)Nc1ccn([C@H]2CC[C@@H](COP(=O)(O)O[C@H]3C[C@H](n4cc(C)c(=O)[nH]c4=O)O[C@@H]3CO)O2)c(=O)n1,DPS-resistant (RT-Y181C),Diphenyl sulfone-resistant (RT-Y181C),CEM + CEM-SS,cytopathic effect / XTT,0.63
CCc1c(C)[nH]c(=O)c(C(C)C)c1Oc1cc(C)cc(C)c1,,RT-L100I,MT-4,cytopathic effect / MTT,1
CCC(C)OC(=S)Nc1ccc(Cl)c(C(=O)OC(C)(C)C)c1,,RT-V106A,CEM,syncytia,11.7
Nc1ncnc2c1ncn2[C@@H]1O[C@H](CO)C=C1F,,M184V,MT-2,,1.2
CCCOC(=S)Nc1ccc(Cl)c(C(=O)OC(C)C)c1,,RT-E138K,CEM,syncytia,13
CC1=C(C(=O)Nc2ccc(Cl)c(C(=O)OC(C)C)c2)SCCO1,IIIB,RT-V179D,CEM,syncytia,22
CC(C)OC(=O)c1cc(NC(=S)OCC2(C)COC2)ccc1Cl,,RT-E138K,CEM,syncytia,>1.07
C=C(Cl)COc1cc(NC(=S)c2ccoc2C)ccc1Cl,TSAO-m3T-resistant (RT E138K),RT-E138K,CEM,syncytia,5.53
CN(C)C1=C(C#N)/C(=C2/C(C#N)=C(N(C)C)N(c3ccc([N+](=O)[O-])cc3)c3c2n(C)c2ccccc32)c2c(c3ccccc3n2C)N1c1ccc([N+](=O)[O-])cc1,A17,RT-K103N Y181C,CEM + CEM-SS,cytopathic effect / XTT,3.62
Cc1occc1C(=S)Nc1ccc(Cl)c(OCC=C(Cl)Cl)c1,TSAO-m3T-resistant (RT E138K),RT-E138K,CEM,syncytia,4.71
CC1=C(C(=O)Nc2ccc(Cl)c(C(=O)OC(C)C)c2)SCCO1,IIIB,RT-V179D,CEM,syncytia,22.4
CCC(C)OC(=O)c1cc(NC(=S)OC(C)C)ccc1Cl,,RT-V106A,CEM,syncytia,49.7
Cc1cc(S(N)(=O)=O)ccc1NC(=O)COc1ccc(Cl)cc1C(=O)c1cccc(C#N)c1,HXB2,RT-P236L,HeLa + HELA CD4+,β-galactosidase,~10
CCCCC(CC)COC(=O)c1cc(NC(=S)OC(C)C)ccc1Cl,,RT-E138K,CEM,syncytia,93.7
COc1c(Cl)ccc2c1[C@@](C#Cc1cccnc1)(C(F)(F)F)NC(=O)N2,,RT-L100I K103N,MT-4,p24,357.9
CCCCOC(=O)c1cc(NC(=S)OC(C)C)ccc1Cl,,RT-E138K,CEM,syncytia,13.7
C=C(C)[C@@H]1CC[C@]2(C(=O)NCCCCCCCC(=O)N[C@@H](CC(C)C)[C@@H](O)CC(=O)O)CC[C@]3(C)[C@H](CC[C@@H]4[C@@]5(C)CC[C@H](O)C(C)(C)[C@@H]5CC[C@]43C)[C@@H]12,LAI,GP41-A101S,HeLa P4 + HeLa,syncytia,~1
CCc1c(C)[nH]c(=O)c(I)c1Oc1cc(C)cc(C)c1,,RT-K103N,MT-4,cytopathic effect / MTT,3
COc1cccc(Nn2c(-c3ccccc3)c(C)[nH]c2=S)c1,SO561945 (RT K103N Y181C),RT-K103N Y181C,MT-4,cytopathic effect / MTT,<3.88
CCc1c(Cc2cc(Cl)cc(Cl)c2)n(COCC=C(C)C)c(=O)[nH]c1=O,NNRTI-resistant (RT K103N Y181C) A17,RT-K103N Y181C,MT-4,cytopathic effect / MTT,>200
COc1ccc(NC(=S)C2=C(C)OCCS2)cc1OCC=C(Cl)Cl,HEPT-resistant (RT Y188H),RT-Y188H,CEM,syncytia,7.41
CCc1c(C)[nH]c(=O)c(Cl)c1Oc1cc(C)cc(C)c1,,RT-L100I,MT-4,cytopathic effect / MTT,5
CC(C)OC(=S)Nc1ccc(Cl)c(C(=O)OC2CCCC2)c1,,RT-V106A,CEM,syncytia,27.3
Cc1cc2[nH]cnc2cc1NC(=O)COc1ccc(Cl)cc1C(=O)c1cc(F)cc(C(F)(F)F)c1,HXB2,RT-K103N V108I,HeLa + HELA CD4+,β-galactosidase,~1
CCOCn1c(Cc2cc(Cl)cc(Cl)c2)c(CC)c(=O)[nH]c1=O,NNRTI-resistant (RT Y181C) N119,RT-Y181C,MT-4,cytopathic effect / MTT,>250
CCc1c(C)[nH]c(=O)c(Br)c1Oc1cc(C)cc(C)c1,,RT-L100I K103N,MT-4,cytopathic effect / MTT,32
Cc1occc1C(=O)Nc1ccc(Cl)c(/C=N/N(C)C)c1,L-697 661-resistant RT Y181C,RT-Y181C,CEM,syncytia,<8.89
CC(C)OC(=S)Nc1ccc(Cl)c(C(=O)OCC2CC2)c1,,RT-L100I,CEM,syncytia,17.5
CC(C)OC(=O)c1cc(NC(=S)OC(C)C)ccc1Cl,IIIB,RT-E138K,CEM,syncytia,43
CCc1c(C)[nH]c(=O)c(C2CC2)c1Oc1cc(C)cc(C)c1,,RT-L100I,MT-4,cytopathic effect / MTT,6
Cc1cn([C@H]2C=C[C@@H](CO)O2)c(=O)[nH]c1=O,HXB2,RT-K65R,MT-4,cytopathic effect / MTT,1.2
COc1c(Cl)ccc2c1[C@@](C#Cc1ccccc1)(C(F)(F)F)NC(=O)N2,,RT-K103N,MT-4,p24,14.3
CSc1ccc(NC(=S)OC(C)C)cc1C(=O)OC(C)C,,RT-V106A,CEM,syncytia,150
COc1ccc(NC(=O)c2ccoc2C)cc1OCC=C(Cl)Cl,Pyridone-resistant (RT Y181C),RT-Y181C,CEM,syncytia,32
CC(C)(C)OC(=O)c1cc(NC(=S)OC(C)(C)C)ccc1Cl,,RT-V106A,CEM,syncytia,15.4
Cc1[nH]c(=S)n(Nc2cccc(F)c2)c1-c1ccccc1,SO561945 (RT K103N Y181C),RT-K103N Y181C,MT-4,cytopathic effect / MTT,≤2.35
Cc1ccc(C)c(CS(=O)c2ccc(Cl)c[n+]2[O-])c1,IIIB,RT-E138K,CEM,syncytia,4.75
CCc1c[nH]c(=O)c(N)c1Sc1cc(C)cc(C)c1,N119(RT-Y181C),RT-Y181C,CEM + CEM-SS,cytopathic effect / MTT,29.6
CCc1[nH]c(=S)n(Nc2cccc(Cl)c2)c1-c1ccccc1,SO561945 (RT K103N Y181C),RT-K103N Y181C,MT-4,cytopathic effect / MTT,<1
C[C@@H]1CCO[C@H]2Cn3cc(C(=O)NCc4ccc(F)cc4F)c(=O)c(O)c3C(=O)N12,,I60M/L74F/V75I,TZM-bl,luciferase / luminescence,0.5
CC(C)OC(=S)Nc1ccc(Cl)c(C(=O)OCC(F)(F)F)c1,,RT-V106A,CEM,syncytia,>28.6
C/C(Cl)=C/COc1cc(NC(=S)c2ccoc2C)ccc1Cl,Nevirapine-resistant isolate (RT V106A),RT-V106A,CEM,syncytia,4
Cc1cc(C)cc(C(=O)c2cc(Cl)ccc2OCC(=O)Nc2ccc(S(N)(=O)=O)cc2C)c1,HXB2,RT-P225H,HeLa + HELA CD4+,β-galactosidase,~1
CCc1cc(=O)c2ccc3c(c2o1)[C@@H](OC(=O)C12CCC(C)(C(=O)O1)C2(C)C)[C@@H](OC(=O)C12CCC(C)(C(=O)O1)C2(C)C)C(C)(C)O3,NL4-3,RT-E138K,MT-4,p24,>714
CSC(=Nc1ccc(Cl)c(C(=O)OC(C)C)c1)OC(C)C,,RT-Y181C,CEM,syncytia,>1
CCN1c2ncc(CCOc3cccc4c3ccc[n+]4[O-])cc2C(=O)N(C)c2ccc(Cl)nc21,,RT-K103N Y181C,C8166,p24,27.5
O=C(O[C@@H]1[C@H](OC(=O)c2ccccc2)[C@@H](CO)O[C@H]1n1cnc2c(N(C(=O)c3ccccc3)C(=O)c3ccccc3)ncnc21)c1ccccc1,NL4-3,T215Y,HeLaP4,β-galactosidase,1.07
O=C1Nc2ccc(Cl)c(O)c2[C@@](C#Cc2ccccc2)(C(F)(F)F)N1,,RT-L100I K103N,MT-4,p24,284.7
C/C=C/COc1cc(NC(=S)OC(C)C)ccc1Cl,,RT-L100I,CEM,syncytia,10
Clc1cccc(Nn2cnc3c2CCCC3)c1,SO561945 (RT K103N Y181C),RT-K103N Y181C,MT-4,cytopathic effect / MTT,<1
Cc1ccc(C)c(CS(=O)(=O)c2cccc[n+]2[O-])c1,IIIB,RT-Y181C,CEM,syncytia,3.77
CCc1c(Cc2cc(Cl)cc(Cl)c2)n(COC/C(C)=C/c2ccccc2)c(=O)[nH]c1=O,NNRTI-resistant (RT Y181C) N119,RT-Y181C,MT-4,cytopathic effect / MTT,66
Cc1cc(N)cc(C)c1Oc1nc(N)nc(Nc2ccc(C#N)cc2)n1,,RT-Y181C,MT-4,cytopathic effect / MTT,12.8
CC(C)OC(=O)c1cc(NC(=S)OC(C)C)ccc1Cl,,RT-V106A,CEM,syncytia,73.6
CCC(=O)c1ccc(F)c([C@@H]2C[C@@H]2NC(=O)Nc2ccc(C#N)cn2)c1O,LAI,NNRTI-resistant (RT K101E/K103N),TZM-bl,β-galactosidase / luminescence,56.3

Again, the opening 5 rows:

compound,strain,changes,cells,method,result
CC(C)OC(=S)Nc1ccc(Cl)c(C(=O)O)c1,,RT-E138K,CEM,syncytia,>1
CCc1c(Cc2cc(Cl)cc(Cl)c2)n(COC2Cc3ccccc3C2)c(=O)[nH]c1=O,NNRTI-resistant (RT Y181C) N119,RT-Y181C,MT-4,cytopathic effect / MTT,16.15
O=S(=O)(Cc1ccccc1I)c1cccc[n+]1[O-],IIIB,RT-K103N,CEM,syncytia,1.125
Cc1ncn(Nc2ccccc2)c1-c1ccccc1,SO561945 (RT K103N Y181C),RT-K103N Y181C,MT-4,cytopathic effect / MTT,<2.49
C#CCOCn1c(Cc2cc(Cl)cc(Cl)c2)c(CC)c(=O)[nH]c1=O,NNRTI-resistant (RT K103N Y181C) A17,RT-K103N Y181C,MT-4,cytopathic effect / MTT,250